Measured values from several laboratories, pooled; numbers as filed in NIAID ChemDB.

All rows: host cell toxicity; cell line: MT-4; measure: CC50

CCn: concentration that lowers growth or viability of the cells by n%. Neighbouring rows are from separate reports.

structure | value
Nc1ccn([C@H]2C[C@H](CO)[C@@H](CO)O2)c(=O)n1 | >300 µM
CCn1cc(C(=O)O)c(=O)c2cc(F)c(N3CCN(CN4C(=O)C(=Nc5ccc(S(=O)(=O)Nc6ncccn6)cc5)c5ccccc54)CC3)cc21 | 48.5 µg/mL
[N-]=[N+]=N[C@H]1C[C@H](N2C(=O)NC(=O)/C2=C/c2ccccc2)O[C@@H]1CO | ~100 µM
O=C1CSC(c2ccccc2Cl)N1Cc1ccco1 | 112 µM
Cc1cn([C@@H]2O[C@H](CO[Si](C)(C)C(C)(C)C)C3(OS(=O)(=O)C=C3N)[C@H]2O[Si](C)(C)C(C)(C)C)c(=O)n(CCCCCCO/C(=C/C(=O)c2ccccc2)c2ccccc2)c1=O | >100 µM
CCn1cc(C(=O)O)c(=O)c2cc(F)c(N3CCN(CN4C(=O)/C(=N\c5ncc(Cc6cc(OC)c(OC)c(OC)c6)c(N)n5)c5cc(Cl)ccc54)CC3)cc21 | 57.6 µg/mL
O=C1Nc2ccc(Cl)cc2Sc2c1[nH]c1ccccc21 | 22 µM
COc1cccc(Cn2c(-c3ccccc3F)nc3c(OC)cccc32)c1 | 6.8 µg/mL
Fc1cccc(F)c1Cn1c(=S)[nH]c2ccc(Cl)nc21 | >125 µg/mL
Nc1nc(N)c2ncn(CCOCP(=O)(O)O)c2n1 | >2.67 µg/mL
[N-]=[N+]=N[C@H]1C[C@@H](CO)O[C@H]1n1cnc2c(NC3CC3)ncnc21 | >125 µg/mL
CCOC(=O)c1cccn1S(=O)(=O)c1cccc(NC(N)=O)c1 | >200 µM
COc1cccc2c(C#N)c3ccccc3c(NC(=S)N[C@H]3C[C@H](n4cc(C)c(=O)[nH]c4=O)O[C@@H]3CO)c12 | 52.5 µg/mL
CC(=O)Nc1ccn([C@H]2C[C@H](CO)[C@@H](CO)O2)c(=O)n1 | >300 µM
Cc1cn([C@@H]2O[C@H](CO[Si](C)(C)C(C)(C)C)C3(OS(=O)(=O)C=C3N)[C@H]2O[Si](C)(C)C(C)(C)C)c(=O)n(CCCO/C(=C\C(=O)c2ccccc2)c2ccccc2)c1=O | ≥250 µM
O=C1Nc2ccc(Cl)cc2Sc2c1[nH]c1ccc(Cl)cc21 | 200 µM
Cc1cccc(C)c1C1SCC(=O)N1Cc1ccco1 | 42.8 µM
CCOC(=O)c1cccn1S(=O)(=O)c1cc(Cl)ccc1NC(=O)c1ccc(Cl)cc1 | >200 µM
O=C1Nc2ccccc2S(=O)(=O)c2c1[nH]c1ccccc21 | >200 µM
COc1cccc2c1nc(-c1ccccc1F)n2Cc1ccc(F)cc1 | 13.8 µg/mL
CCOC(=O)c1cccn1S(=O)(=O)c1cc(Cl)ccc1NC(=O)CC(C)C | >200 µM
CC(=O)/C=C(\C)OCCCCCCCCn1c(=O)c(C)cn([C@@H]2O[C@H](CO[Si](C)(C)C(C)(C)C)C3(OS(=O)(=O)C=C3N)[C@H]2O[Si](C)(C)C(C)(C)C)c1=O | 67 µM
[N-]=[N+]=N[C@H]1C[C@@H](N2C(=O)NC(=O)/C2=C/c2ccccc2)O[C@@H]1CO | ~100 µM
COc1cccc2c1nc(-c1ccccc1F)n2CCC=C(C)C | 12.05 µg/mL
Fc1cccc(F)c1Cn1c(=S)[nH]c2cccnc21 | >125 µg/mL
CCn1cc(C(=O)O)c(=O)c2cc(F)c(N3CCN(CN4C(=O)/C(=N\c5ncc(Cc6cc(OC)c(OC)c(OC)c6)c(N)n5)c5ccccc54)CC3)cc21 | 66.5 µg/mL
Nc1ncnc2c1ccn2CCOCP(=O)(O)O | >8.27 µg/mL
CC(=O)C(CCCCCCn1c(=O)c(C)cn([C@@H]2O[C@H](CO[Si](C)(C)C(C)(C)C)C3(OS(=O)(=O)C=C3N)[C@H]2O[Si](C)(C)C(C)(C)C)c1=O)C(C)=O | >250 µM
CC(C)N(C=Nc1ccn([C@H]2C[C@H](CO)[C@@H](CO)O2)c(=O)n1)C(C)C | >300 µM
O=C1CSC(c2cc(Cl)cc(Cl)c2)N1Cc1ccco1 | 42.16 µM
CCOC(=O)c1cccn1S(=O)(=O)c1ccc(NC(C)=O)cc1 | 83.8 µM
CN(C)c1ncnc2c1ncn2[C@@H]1O[C@H](CO)C[C@@H]1N=[N+]=[N-] | 115.1 µg/mL
CCn1cc(C(=O)O)c(=O)c2cc(F)c(N3CCN(CN4C(=O)C(=Nc5ccc(S(=O)(=O)Nc6ncnc(OC)c6OC)cc5)c5ccccc54)CC3)cc21 | 88.5 µg/mL
COc1cccc2c1nc(-c1ccccc1F)n2Cc1ccco1 | 14.2 µg/mL
CCOP(=O)(O)COCCn1cnc2c(=O)[nH]c(N)nc21 | >2.6 µg/mL
C/C=C/C=C/C=NC=Nc1ccn([C@H]2C[C@H](CO)[C@@H](CO)O2)c(=O)n1 | >300 µM
CC(C)c1nc(COC(=O)N[C@H](C(=O)N[C@@H](Cc2ccccc2)[C@H](O)CN2CCN(Cc3cncs3)C[C@H]2C(=O)NC(C)(C)C)C(C)C)cs1 | 68.95 µM
COc1cccc2c1[nH]c(=S)n2Cc1c(F)cccc1F | 0.44 µg/mL
COc1ccc(C2SCC(=O)N2Cc2ccco2)cc1 | 85.64 µM
CC(C)(C)C(=O)Nc1ccn([C@H]2C[C@H](CO)[C@@H](CO)O2)c(=O)n1 | >300 µM
Fc1cccc(F)c1CCn1c(=S)[nH]c2ccc(Cl)nc21 | >25 µg/mL
Nc1nc(=S)c2ncn(CCOCP(=O)(O)O)c2[nH]1 | >9.5 µg/mL
CC(C)[C@H](NC(=O)OC[C@H]1C[C@H](n2ccc(N=CN(C)C)nc2=O)O[C@@H]1COC(=O)N[C@H](C(=O)NC(=O)OC(C)(C)C)C(C)C)C(=O)NC(=O)OC(C)(C)C | >300 µM
CCOC(=O)c1[nH]c2ccccc2c1Sc1ccccc1N | ≥200 µM
CCCCCC(=O)Nc1ccc(Cl)cc1S(=O)(=O)n1cccc1C(=O)OCC | >200 µM

For reference, 5 entries again:

| structure | value |
|---|---|
| COc1cccc(Cn2c(-c3ccccc3F)nc3c(OC)cccc32)c1 | 6.8 µg/mL |
| CCOP(=O)(O)COCCn1cnc2c(=O)[nH]c(N)nc21 | >2.6 µg/mL |
| CCn1cc(C(=O)O)c(=O)c2cc(F)c(N3CCN(CN4C(=O)C(=Nc5ccc(S(=O)(=O)Nc6ncccn6)cc5)c5ccccc54)CC3)cc21 | 48.5 µg/mL |
| CCOC(=O)c1cccn1S(=O)(=O)c1cc(Cl)ccc1NC(=O)c1ccc(Cl)cc1 | >200 µM |
| CCOC(=O)c1cccn1S(=O)(=O)c1cccc(NC(N)=O)c1 | >200 µM |